Reference: the supplement of paper PMC9931576
Human monoclonal antibodies against the spike receptor-binding domain (heavy:light variable regions). IC50 against pseudoviruses bearing the spike of naturally observed variants; lower = stronger; >10 µg/ml means not reached at the top dose. No active / inactive call. The stated detection limit is 0.0005 µg/ml; values near or below 0.001 µg/ml lie at the floor of the assay.

Tests used:
Assay in all cases: pseudovirus neutralization IC50; higher = weaker neutralization
[1] = target: SARS-CoV-2 Omicron BA.1 spike pseudovirus
Experimental: (§1)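 Single-round VSV luciferase pseudovirus mixed with antibody dilutions for 1 h and put on Huh-7 cells for about a day; IC50 from the dose curve.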

[2] = target: SARS-CoV-2 Omicron BA.2 spike pseudovirus
Experimental: as §1

[3] = target: SARS-CoV-2 Omicron BA.2.75 spike pseudovirus
Experimental: as §1

[4] = target: SARS-CoV-2 Omicron BA.5 spike pseudovirus
Experimental: as §1

[5] = target: SARS-CoV-2 Omicron BQ.1.1 spike pseudovirus
Experimental: as §1

[6] = target: SARS-CoV-2 early D614G spike pseudovirus
Experimental: as §1

[7] = target: SARS-CoV-2 Omicron XBB spike pseudovirus
Experimental: as §1

Binder | pseudovirus neutralization IC50 [1] | pseudovirus neutralization IC50 [2] | pseudovirus neutralization IC50 [3] | pseudovirus neutralization IC50 [4] | pseudovirus neutralization IC50 [5] | pseudovirus neutralization IC50 [6] | pseudovirus neutralization IC50 [7]
BD-914 (protein) chain 1: QVQLVQSGAEVTKPGSSVKVSCKTSGDTFSLYPISWVRQAPGQGLEWMGRIIPIVGIADYAQKFQGRVTITADKSTSTAYMELSSLRSEDTAIYYCARDGNQYYYDSGGDYYVNYWGQGTLITVSS chain 2: DIQMTQSPSSLSASVGDRVTITCQASQDIRKDLNWYRQRPGKAPKLLIYDASNLETGVPSRFSGSGSGTHFTFTISGLQPEDVATYYCQQYDNVPVTFGPGTKVDIR | 0.0713 µg/mL | 0.046 µg/mL | 0.0223 µg/mL | > 10 µg/mL | > 10 µg/mL | 0.012 µg/mL | –
BD-906 (protein) chain 1: QLHLQESGPGLVKPSETLSLNCTASSGSFSWGDYYWAWIRQPPGKGPEWIGSIYYSRNTYYHPSLKSRVTISVDTSKNQFSLKLSSVTAADTAKYYCARHFRPPYYSGSGSYHYGMDVWGQGTTVTVSS chain 2: DIQMTQSPFFLSASVGDRVTITCRASQSIINYLNWYQQKPGKAPKLLIYTASNLQSGVPSRFSGSGSETDFTLTISSLQPEDFATYYCQQSYSIPDTFGQGTKLEIK | > 10 µg/mL | > 10 µg/mL | > 10 µg/mL | > 10 µg/mL | > 10 µg/mL | 0.017 µg/mL | > 10 µg/mL
BD-912 (protein) chain 1: EEQLVQSGGGLVKPGGSLRLSCAASGFPFSAYTMNWVRQTPGKGLEWVSSISSSSTYIYYADSVKGRFTISRDNARNSLYLQLNSLRVDDTAVYYCWSCGSGSHPFDYWGQGTLVTVSS chain 2: QSALTQPASVSGSPGQSITVSCTGTSSDVGGFNYVFWYQQHPGKAPKLLIYDVTYRPSGVSNRFSGSKSGNTASLTISGLQAEDEADYYCTSFTTSSTWVFGGGTKVTVL | 0.965 µg/mL | 1.4 µg/mL | 0.0885 µg/mL | > 10 µg/mL | > 10 µg/mL | 0.014 µg/mL | > 10 µg/mL
BD55-688 (protein) chain 1: QVQLQESGPGLVKPSETLSLTCTVSGGSISNYFWSWLRQPPGKGLEWIGYIYNSGNTNYNPSLKSRVTISVDTSKNQFSLKVSSVTAADTAVYYCARGRWLRGEFDYWGQGTLVTVSS chain 2: NFMLTQPHSVSESPGKTVTISCTGSSGSIASNYVQWYQQRPGSAPMTVIYEDNLRPSGVPDRFSGSIDSSSNSASLTISGLKTEDEADYYCQSYDSGFYVFGTGTKVTVL | 2.64 µg/mL | > 10 µg/mL | > 10 µg/mL | > 10 µg/mL | > 10 µg/mL | 1.33 µg/mL | > 10 µg/mL
BD55-711 (protein) chain 1: QVTLKESGPVLVKPTETLTLTCSVSGFSLSNARMGVSWIRQPPGKALEWLAHIFSNDEKSYSTSLKSRLTISKDTSKSQVVLTMTNMDPVDTATYFCARMPMYYDVLRGGYYYGMDVWGQGITVTVSS chain 2: NFMLTQPHSVSESPGKTVTISCTRSSGSIASNYVQWYQQRPGSAPTTVIYEDNERPSGVPDRFSGSIDSSSNSASLTISGLKTEDEADYYCQSYDSSTVVFGGGTKLTVL | > 10 µg/mL | > 10 µg/mL | > 10 µg/mL | > 10 µg/mL | > 10 µg/mL | 4 µg/mL | > 10 µg/mL
BD55-683 (protein) chain 1: EVQLVESGGGLVQPGGSLRLSCAASGFTFSSYWMSWVRQAPGKGLEWVANIKQDGSEKYYVDSVKGRFTISRDNAKNSLYLQMNSLRAEDTAVYYCARVPRGYYDSSGYYHEIYYFDYWGQGTLVTVSS chain 2: NFMLTQPHSVSESPGKTVTISCTRSSGSIASNYVQWYQQRPGSSPTTVIYEDNQRPSGVPDRFSGSIDSSSNSASLTISGLKTEDEADYYCQSYDSSNHVWVFGGGTKLTVL | > 10 µg/mL | > 10 µg/mL | > 10 µg/mL | > 10 µg/mL | > 10 µg/mL | 2.89 µg/mL | > 10 µg/mL
BD55-557 (protein) chain 1: QVQLVQSGSELKKPGASVKVSCKASGYTFTTYAMNWVRQAPGQGLEWMGWINTNTGNPTYAQGFTGRFVLSLDTSVSTAYLQISSLKAEDTAVYYCARDSSVITSVAAGGTLTIAEYFQHWGQGTLVTVSS chain 2: SYELTQPPSVSVSPGQTARITCSGDALPKQYAYWYQQKPGQAPVLVIYKDNERPSGIPERFSGSSSGTTVTLTISGVQAEDEADYYCQSADSRYIFGGGTKLTVL | > 10 µg/mL | > 10 µg/mL | > 10 µg/mL | > 10 µg/mL | > 10 µg/mL | > 10 µg/mL | > 10 µg/mL
